Measured values from several laboratories, pooled; numbers as filed in NIAID ChemDB.

Common to all: tests on isolated targets; agent: Hepatitis C virus; target: NS3/NS4A protease; endpoint: IC50

a–b is a range or a potency band. ICn: concentration for n% inhibition. Lines come from different laboratories, so protocols vary. Blank or dashed fields: not listed here.

SMILES | strain | method | result
C=CC1C[C@]1(NC(=O)[C@@H]1C[C@@H](Oc2cc(-c3csc(NC(C)=O)n3)nc3cc(OC)ccc23)CN1C(=O)[C@@H](NC(=O)OC(C)(C)C)C(C)(C)C)C(=C)C |  |  | 0.015 µM
CCCCCC[C@@H](C=O)NC(=O)[C@H](CC(C)C)NC(=O)[C@@H](NC(=O)[C@H](Cc1ccccc1C)NC(=O)[C@H](CCC(=O)O)NC(=O)[C@H](CC(=O)O)NC(=O)CCC(=O)O)C(C)(C)C |  |  | 0.225 µM
CCC[C@H](NC(=O)[C@@H]1C[C@@H](OC(=O)N2CCc3ccccc3C2)CN1C(=O)[C@@H](NC(=O)[C@@H](NC(=O)[C@H](CNC(=O)OC)NC(=O)OC)C1CCCCC1)C(C)(C)C)C(=O)C(=O)NC1CC1 |  |  | 0.068 µM
O=C(NCCc1ccccc1)c1c(O)cc(O)c([N+](=O)[O-])c1O |  | HPLC | 46.2 µg/mL
C=CC1CC1(NC(=O)[C@@H]1C[C@@H](OC(=O)Nc2ccccc2C(C)(C)C)CN1C(=O)[C@@H](NC(=O)OC(C)(C)C)C(C)(C)C)C(=O)NS(=O)(=O)C1CC1 | BMS/H77C/J416S |  | 0.1–1 µM
C=CC1CC1(NC(=O)C1C[C@@H](Oc2cc(-c3ccccc3)nc3cc(OC)ccc23)CN1C(=O)C(NC(=O)OC(C)(C)C)C(C)(C)C)C(=O)OCC | H77C |  | 0.01 µM
C=CC1CC1(NC(=O)[C@@H]1C[C@@H](OC(=O)Nc2cc([N+](=O)[O-])ccc2C)CN1C(=O)[C@@H](NC(=O)OC(C)(C)C)C(C)(C)C)C(=O)NS(=O)(=O)C1CC1 | BMS/H77C/J416S |  | <0.1 µM
C#CC[C@@H](C=O)C(=O)[C@H](CCC(=O)O)NC(=O)[C@@H](CCC(=O)O)NC(=O)[C@H](Cc1ccc([N+](=O)[O-])cc1)NC(=O)[C@H](CCC(=O)O)NC(=O)[C@H](CC(=O)O)NC(=O)CCC(=O)O |  |  | 39 µM
C=C[C@H]1C[C@@]1(NC(=O)[C@@H]1C[C@@H](Oc2cc(-c3ccccc3)nc3cc(OC)ccc23)CN1C(=O)[C@@H](NC(=O)OC(C)(C)C)C(C)(C)C)C(=O)NS(=O)(=O)C1(I)CC1 | BMS |  | <0.05 µM
C=C[C@@H]1C[C@]1(NC(=O)[C@@H]1C[C@@H](Oc2cc(-c3ccccc3)nc3cc(OC)ccc23)CN1C(=O)[C@@H](NC(=O)C1(O)CC1)C(C)(C)C)C(=O)NS(=O)(=O)C1CC1 | BMS |  | <0.05 µM
COc1ccc2c(O[C@@H]3C[C@@H](C(=O)NC4(C(=O)NS(=O)(=O)C5(C(=O)c6ccccc6)CC5)CC4)N(C(=O)[C@@H](NC(=O)OC(C)(C)C)C(C)(C)C)C3)cc(-c3ccccc3)nc2c1 | BMS |  | 0.5–5 µM
C=CC1CC1(NC(=O)[C@@H]1C[C@@H](OC(=O)Nc2ncccc2C(=O)OCC)CN1C(=O)[C@@H](NC(=O)OC(C)(C)C)C(C)(C)C)C(=O)NS(=O)(=O)C1CC1 | BMS/H77C/J416S |  | <0.1 µM
C=C[C@@H]1C[C@]1(NC(=O)[C@@H]1C[C@@H](Oc2cc(-c3ccccc3)nc3cc(OC)ccc23)CN1C(=O)[C@@H](NC(=O)OC(C)(C)C)C(C)C)C(=O)NS(=O)(=O)C(C)C | BMS |  | <0.05 µM
C=CC1C[C@]1(NC(=O)[C@@H]1C[C@@H](Oc2cc(-c3ccccc3)nc3cc(OC)ccc23)CN1C(=O)[C@@H](NC(=O)OC(C)(C)C)C(C)(C)C)C(=O)NS(=O)(=O)c1nc2ccc(OCC)cc2s1 | BMS |  | 0.1–1 µM
C=C(C)CC[C@H](CC(=C)[C@H](CC(=C)C)CC(=C)CCC(=O)O)C(=C)C[C@@H](Cc1ccccc1C)C(=C)C[C@H](C(=C)C[C@@H](CC(C)C)C(=C)C[C@@H](CCCC)C(=C)C(=C)C)C(C)(C)C |  |  | 0.011 µM
C=CC1C[C@]1(NC(=O)[C@@H]1C[C@@H](Oc2cc(-c3ccccc3)nc3cc(OC)ccc23)CN1C(=O)[C@@H](NC(=O)OC(C)(C)C)C(C)(C)C)C(=O)NS(=O)(=O)c1sc(C)nc1C | BMS |  | <0.1 µM
C=C[C@@H]1C[C@]1(NC(=O)[C@@H]1C[C@@H](Oc2cc(-c3ccccc3)nc3cc(OC)ccc23)CN1C(=O)[C@@H](NC(=O)OC(C)(C)C)C(C)(C)C)C(=O)NS(=O)(=O)c1ccccc1I | BMS |  | <0.05 µM
C=C[C@H]1C[C@@]1(NC(=O)[C@@H]1C[C@@H](Oc2cc(-c3ccccc3)nc3cc(OC)ccc23)CN1C(=O)[C@@H](NC(=O)NCC)C(C)(C)C)C(=O)NS(=O)(=O)C1(Cc2ccccc2)CC1 | BMS |  | <0.05 µM
C=C[C@@H]1C[C@]1(NC(=O)C1C[C@@H](Oc2cc(-c3csc(NC4CCCCC4)n3)nc3cc(OC)ccc23)CN1C(=O)[C@@H](NC(=O)OC1CCCC1)C(C)(C)C)C(=O)O |  |  | <0.1 µM
Cc1cccc(NC(=O)c2c(O)cc(O)c([N+](=O)[O-])c2O)c1 |  | HPLC | 44.9 µg/mL
C=C[C@H]1C[C@@]1(NC(=O)[C@@H]1C[C@@H](Oc2cc(-c3ccccc3)nc3cc(OC)ccc23)CN1C(=O)[C@@H](NC(=O)OC(C)(C)C)C(C)(C)C)C(=O)NS(=O)(=O)C1(Cc2ccccc2F)CC1 | BMS |  | <0.05 µM
C=C[C@@H]1C[C@]1(NC(=O)C1C[C@@H](Oc2cc(-c3csc(NC4CCCC4)n3)nc3cc(OC)ccc23)CN1C(=O)[C@@H](NC(=O)OC1CCC1)C(C)(C)C)C(=O)O |  |  | <0.1 µM
CC[C@H](C)[C@H](NC(=O)OC(C)(C)C)C(=O)N1C[C@H](Oc2cc(-c3ccccc3)nc3cc(OC)ccc23)C[C@H]1C(=O)NC1(C(=O)NS(=O)(=O)C2CC2)CC1 | BMS |  | <0.05 µM
C=CC1CC1(NC(=O)[C@@H]1C[C@@H](OC(=O)NCCc2cccs2)CN1C(=O)[C@@H](NC(=O)OC(C)(C)C)C(C)(C)C)C(=O)O | BMS/H77C/J416S |  | >10 µM
CCCC[C@@H](C=O)NC(=O)[C@H](CC(C)C)NC(=O)[C@@H](NC(=O)[C@H](Cc1ccccc1C)NC(=O)[C@H](CCC(=O)O)NC(=O)[C@H](CC(=O)O)NC(=O)CCC(=O)O)C(C)(C)C |  |  | 0.065 µM
COc1ccc2c(O[C@@H]3C[C@@H](C(=O)O)N(C(=O)OC(C)(C)C)C3)cc(-c3ccccc3)nc2c1 | BMS |  | <0.05 µM
CC[C@H]1C[C@@]1(NC(=O)[C@@H]1C[C@@H](Oc2cc(-c3ccccc3)nc3cc(OC)ccc23)CN1C(=O)[C@H](CC1CCCCC1)NC(=O)OC(C)(C)C)C(=O)NS(=O)(=O)C1CC1 | BMS |  | <50 µM
C=CC1CC1(NC(=O)[C@@H]1C[C@@H](OC(=O)Nc2cc(Cl)nc(Cl)c2)CN1C(=O)[C@@H](NC(=O)OC(C)(C)C)C(C)(C)C)C(=O)NS(=O)(=O)C1CC1 | BMS/H77C/J416S |  | 0.1–1 µM
C=CC1C[C@]1(NC(=O)[C@@H]1C[C@@H](Oc2cc(-c3ccccc3)nc3cc(OC)ccc23)CN1C(=O)[C@@H](NC(=O)OC(C)(C)C)C(C)(C)C)C(=O)NS(=O)(=O)c1ccc(-c2cc(C(F)(F)F)nn2C)s1 | BMS |  | <0.1 µM
Cc1ccccc1NC(=O)c1c(O)cc(O)c([N+](=O)[O-])c1O |  | HPLC | 47.3 µg/mL
C=C[C@H]1C[C@@]1(NC(=O)[C@@H]1C[C@@H](Oc2cc(-c3ccccc3)nc3cc(OC)ccc23)CN1C(=O)[C@@H](NC(=O)OC(C)(C)C)C(C)(C)C)C(=O)NS(=O)(=O)C1(Cc2ccc(OC)cc2)CC1 | BMS |  | <0.05 µM
C=COC(=O)N[C@H](C(=O)N1C[C@H](Oc2cc(-c3ccccc3)nc3cc(OC)ccc23)C[C@H]1C(=O)N[C@]1(C(=O)NS(=O)(=O)C2CC2)C[C@H]1C=C)C(C)(C)C | BMS |  | <0.05 µM
C=CC1C[C@@]1(NC(=O)[C@@H]1C[C@@H](Oc2cc(-c3ccccc3)nc3cc(OC)ccc23)CN1C(=O)[C@@H](NC(=O)[C@@H]1COc2ccccc2O1)C(C)(C)C)C(=O)NS(=O)(=O)C1(Cc2ccccc2)CC1 | BMS |  | 0.5–5 µM
C#CC[C@@H](C=O)C(=O)[C@H](CCC(=O)O)NC(=O)[C@H](CCC(=O)O)NC(=O)[C@H](CCSC)NC(=O)[C@H](CCC(=O)O)NC(=O)[C@H](CC(=O)O)NC(=O)CCC(=O)O |  |  | 23 µM
C=CC1C[C@]1(NC(=O)[C@@H]1C[C@@H](Oc2cc(-c3ccccc3)nc3cc(OC)ccc23)CN1C(=O)[C@@H](NC(=O)OC(C)(C)C)C(C)(C)C)C(=O)NS(=O)(=O)c1cc([N+](=O)[O-])c(Cl)s1 | BMS |  | <0.1 µM
CCCC(=O)c1cc2c(c(O)c1C)C(=O)C(=O)c1c(O)cccc1-2 |  |  | 7 µM
C=C[C@@H]1C[C@]1(NC(=O)[C@@H]1C[C@@H](Oc2cc(-c3ccccc3)nc3cc(OC)ccc23)CN1C(=O)[C@@H](NC(=O)OCCC(=O)O)C(C)(C)C)C(=O)NS(=O)(=O)C1CC1 | BMS |  | <0.05 µM

For reference, 5 entries again:

SMILES	strain	method	result
C=CC1CC1(NC(=O)[C@@H]1C[C@@H](OC(=O)NCCc2cccs2)CN1C(=O)[C@@H](NC(=O)OC(C)(C)C)C(C)(C)C)C(=O)O	BMS/H77C/J416S		>10 µM
COc1ccc2c(O[C@@H]3C[C@@H](C(=O)O)N(C(=O)OC(C)(C)C)C3)cc(-c3ccccc3)nc2c1	BMS		<0.05 µM
C=C[C@H]1C[C@@]1(NC(=O)[C@@H]1C[C@@H](Oc2cc(-c3ccccc3)nc3cc(OC)ccc23)CN1C(=O)[C@@H](NC(=O)OC(C)(C)C)C(C)(C)C)C(=O)NS(=O)(=O)C1(Cc2ccc(OC)cc2)CC1	BMS		<0.05 µM
C=CC1C[C@]1(NC(=O)[C@@H]1C[C@@H](Oc2cc(-c3ccccc3)nc3cc(OC)ccc23)CN1C(=O)[C@@H](NC(=O)OC(C)(C)C)C(C)(C)C)C(=O)NS(=O)(=O)c1sc(C)nc1C	BMS		<0.1 µM
C=CC1CC1(NC(=O)[C@@H]1C[C@@H](OC(=O)Nc2ncccc2C(=O)OCC)CN1C(=O)[C@@H](NC(=O)OC(C)(C)C)C(C)(C)C)C(=O)NS(=O)(=O)C1CC1	BMS/H77C/J416S		<0.1 µM